Experimental data taken from PubChem BioAssay AID624414 (National Center for Advancing Translational Sciences (NCATS), 2012).
This is a selection; strong and weak results do not stand in their true shares. Activity calls are given as the source filed them. Rule as the data show it: active = activation above about 50%; inconclusive = mostly about 30% to 49%; inactive = weaker than that.

Protein sequences, listed by entry. Tags and fused reporters are not part of them.
UniProt Q9GZU1, whole entry: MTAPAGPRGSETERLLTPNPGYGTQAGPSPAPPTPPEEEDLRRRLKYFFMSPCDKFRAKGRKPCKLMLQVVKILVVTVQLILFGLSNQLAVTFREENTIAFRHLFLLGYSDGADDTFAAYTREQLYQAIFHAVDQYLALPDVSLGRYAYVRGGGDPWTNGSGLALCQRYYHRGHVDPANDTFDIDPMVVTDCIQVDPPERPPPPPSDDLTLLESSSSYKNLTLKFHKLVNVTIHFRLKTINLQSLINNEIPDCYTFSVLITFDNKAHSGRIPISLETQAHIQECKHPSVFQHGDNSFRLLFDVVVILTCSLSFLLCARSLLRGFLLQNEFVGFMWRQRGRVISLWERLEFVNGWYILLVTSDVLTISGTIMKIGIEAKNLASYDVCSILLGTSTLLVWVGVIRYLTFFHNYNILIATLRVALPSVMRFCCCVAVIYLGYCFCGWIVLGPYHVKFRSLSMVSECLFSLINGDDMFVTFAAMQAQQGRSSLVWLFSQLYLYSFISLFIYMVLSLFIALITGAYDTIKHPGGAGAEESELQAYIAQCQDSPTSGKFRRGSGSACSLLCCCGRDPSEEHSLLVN

The compounds below were run against Mucolipin-1 (Homo sapiens) (UniProt Q9GZU1) (assay: qHTS for Agonists of the Human Mucolipin Transient Receptor Potential 1 (TRPML1)). Settings: TRPML1-expressing cells, Ca2+ dye fluorescence, FDSS; stronger effect = higher value.
Excerpt: Mutations of human Mucolipin transient receptor potential 1 (TRPML1) cause type IV mucolipidosis (ML4), a devastating neurodegenerative disease in young children. […] Currently, there is no treatment for ML4. […] Under physiological conditions, TRPMLs regulate membrane trafficking by transducing information about PI(3,5)P2 levels into changes in juxtaorganellar Ca2+, thereby triggering membrane fusion/fission events in the late endocytic pathways (endolysosomal trafficking). In addition, TRPML1 mediates release of Fe2+ from late endosomes and lysosomes, which is essential for cellular iron metabolism. Thus, impaired ion (Ca2+ and Fe2+) homeostasis underlies lysosomal dysfunction and ML4 phenotypes. In ML4 cells, the problem is twofold. First, defective Ca2+-dependent membrane trafficking due to TRPML1-deficiency causes accumulation of lipids and other bio-materials in the lysosome. The second strike comes from the lysosomal iron overload (due to impairment of TRPML1's Fe2+ conductivity), which converts the accumulated materials into the nondegradable (resistant to lysosomal degradation) lipofuscin (also called aging pigment) in the lysosome. Lipofuscin accumulation dramatically compromises the functions of lysosomes.
Niemann-Pick type C (NPC) disease is another lysosome storage disease (LSD) with severe neurodegeneration during the childhood. Currently, there is no cure for NPC. […] Thus, TRPML1 is likely to be an essential regulator of lysosome ion homeostasis. We specifically hypothesize that stimulating TRPML1's Fe2+/Ca2+ channel activity in the lysosome using synthetic agonists can alleviate neurodegeneration associated with ML4 or NPC.
To this end, a high throughput screen was developed in a miniaturized format to screen against the Molecular Libraries Small Molecule Repository (MLSMR) to find small molecules that act either as inhibitors or agonist against the TRPML1 channel.
NIH Chemical Genomics Center [NCGC]
NIH Molecular Libraries Probe Centers Network [MLPCN]
Assay Submitter (PI): Haoxing Xu, University of Michigan Ann Arbor
TRPML1-DL cells are dissociated from flasks, counted and, brought up to a density of 500,000 cells per mL of media containing a 1X Tet inducer. Using a Multidrop Combi, 3uL of this cell solution is dispensed to each well of a 1536 TC treated, black, clear bottom hi base plate for a final cell density of 1,500 cells per well. The assay plates are incubated overnight (approximately 16 hours) at 37 degrees C and 5% CO2. Using a Multidrop Combi, 2uL of ABD Ca8 no wash dye plus quencher is added to each well. The assay plates incubate at room temperature in the dark for 45-90 minutes. The assay plate is read on the FDSS using the following protocol: 10 second baseline read, 23nL of compounds and controls are added using 1536 pintool, agonist read for 110 seconds, 1 uL EC80 addition (4uM final 54-4 diluted in media), antagonist read for 110 seconds.
Also: 0% is about no effect.

SMILES	activation
O=C(O)c1cccc(Nc2c([N+](=O)[O-])cc([N+](=O)[O-])cc2[N+](=O)[O-])c1	inactive: 0.934%
O=c1[nH]c2ccccc2n1C1CCN(C(c2cccs2)c2nnnn2C2CCCC2)CC1 (stereo not drawn)	inactive: 1.08%
CCc1cc(C(=O)NCC2(N3CCCCC3)CCCCC2)sc1C	inactive: 19.9%
O=C(OC1CN2CCC1CC2)C1c2ccccc2C=Cc2ccccc21 (stereo not drawn)	inactive: -0.72%
CCCCn1nnnc1C(c1cccc(OC)c1OC)N1CCC(n2c(=O)[nH]c3ccccc32)CC1 (stereo not drawn)	inactive: -0.347%
CCOC(=O)N1CCC(Nc2ccc(C)cc2)CC1	inactive: 0.425%
COc1cccc(C(c2nnnn2C(C)(C)C)N2CCC(n3c(=O)[nH]c4ccccc43)CC2)c1OC (stereo not drawn)	inactive: 2.52%
N/C(=N\O)c1c(N)no[n+]1[O-]	inactive: 1.31%
O=Cc1ccc(N(CCCl)CCCl)cc1	inactive: -0.602%
O=c1[nH]c2ccccc2n1C1CCN(C(c2cccs2)c2nnnn2C2CCCCC2)CC1 (stereo not drawn)	inactive: 0.162%
O=c1[nH]c2ccccc2n1C1CCN(C(c2ccnc3ccccc23)c2nnnn2C2CCCC2)CC1 (stereo not drawn)	inactive: -0.433%
COc1ccc(C(=O)NCC2(N3CCOCC3)CCCCC2)cc1OC	inactive: 1.36%
COc1cc(C(=O)NCC2(N3CCOCC3)CCCCC2)cc(OC)c1C	inactive: -0.824%
CCCCn1nnnc1C(c1ccccc1)N1CCC(n2c(=O)[nH]c3ccccc32)CC1 (stereo not drawn)	inactive: -0.378%
O=C(NCC1(N2CCOCC2)CCCCC1)c1cc(Br)ccc1Cl	inactive: 1.26%
CC(C)(C)n1nnnc1C(c1cccc2ccccc12)N1CCC(n2c(=O)[nH]c3ccccc32)CC1 (stereo not drawn)	inactive: -0.221%
CN(C)C1(CNC(=O)c2cccc(C#N)c2)CCCCC1	inactive: -0.0408%
O=c1[nH]c2ccccc2n1C1CCN(C(c2ccccc2)c2nnnn2C2CCCC2)CC1 (stereo not drawn)	inactive: -0.504%
CCCN1CCC(Nc2cc(OC)cc(OC)c2)CC1	inactive: 0.579%
Cc1cc(N(CCCl)CCCl)ccc1C=O	inactive: 1.06%
O=C(NCC1(N2CCOCC2)CCCCC1)c1ccccc1	inactive: 0.804%
c1ccc(CN2CCC(Nc3ccccc3)CC2)cc1	inactive: 0.107%
CCOC(=O)C(CC)C1=NC(C)(C)Cc2ccccc21.O=[N+]([O-])c1cc([N+](=O)[O-])c(O)c([N+](=O)[O-])c1 (stereo not drawn)	inactive: 1.4%
O=C(NCC1(N2CCOCC2)CCCCC1)c1ccccc1[N+](=O)[O-]	inactive: 0.0619%

SMILES	activation
N#Cc1ccc(C(=O)NCC2(N3CCCCC3)CCCCC2)cc1	inactive: -0.335%
O=C(NCC1(N2CCOCC2)CCCCC1)c1ccc([N+](=O)[O-])cc1	inactive: 3.68%
CC(C)(C)OC(=O)N1CCC(N(C(=O)c2ccccc2)c2ccc(Cl)cc2)CC1	inactive: 0.65%
Cc1ccccc1C(=O)NCC1(N(C)C)CCCCC1	inactive: -0.102%
CN(C)c1ccc(C(=O)NCC2(N3CCCCC3)CCCCC2)cc1	inactive: -0.455%
Cn1c(=O)[nH]cc(N(CCCl)CCCl)c1=O	inactive: 0.569%
O=C(NCC1(N2CCCCC2)CCCCC1)c1ccco1	inactive: 1.94%
CC(C)(C)c1ccc(C(=O)NCC2(N3CCOCC3)CCCCC2)cc1	inactive: -0.912%
COc1ccc(C(c2nnnn2C2CCCCC2)N2CCC(n3c(=O)[nH]c4ccccc43)CC2)cc1 (stereo not drawn)	inactive: -0.284%
CCN1CCC(Nc2cccc(F)c2)CC1	inactive: 0.325%
CC(C)(C)n1nnnc1C(c1ccnc2ccccc12)N1CCC(n2c(=O)[nH]c3ccccc32)CC1 (stereo not drawn)	inactive: -0.347%
Cc1ccccc1NC1(C#N)CCN(Cc2ccccc2)CC1	inactive: 0.325%
Fc1ccccc1NC1CCN(Cc2ccccc2)CC1	inactive: 0.383%
Cc1ccc(Nc2c([N+](=O)[O-])cc([N+](=O)[O-])cc2[N+](=O)[O-])cc1	inactive: 1.19%
Cc1ccc(C(=O)NCC2(N3CCCCC3)CCCCC2)o1	inactive: -0.51%
Cc1ccc(NC2(C#N)CCN(Cc3ccccc3)CC2)cc1	inactive: 0.911%
CCC(c1nnnn1C1CCCCC1)N1CCC(n2c(=O)[nH]c3ccccc32)CC1 (stereo not drawn)	inactive: 1.06%
COc1cccc(C(c2nnnn2C2CCCCC2)N2CCC(n3c(=O)[nH]c4ccccc43)CC2)c1OC (stereo not drawn)	inactive: 0.866%
CN(C)C1(CNC(=O)c2ccc(C(C)(C)C)cc2)CCCCC1	inactive: 3.62%
CC(=O)N(c1ccccc1)C1CCNCC1	inactive: -0.363%
COc1cc(OC)cc(C(=O)NCC2(N3CCCCC3)CCCCC2)c1	inactive: -0.0318%
O=c1[nH]c2ccccc2n1C1CCN(C(c2ccnc3ccccc23)c2nnnn2C2CCCCC2)CC1 (stereo not drawn)	inactive: -0.756%
CN1CCC(Nc2ccc(Cl)cc2)CC1	inactive: 0.435%
COc1cc(C(=O)NCC2(N3CCOCC3)CCCCC2)cc(OC)c1OC	inactive: 0.99%

SMILES	activation
COc1cccc(C(c2nnnn2C2CCCC2)N2CCC(n3c(=O)[nH]c4ccccc43)CC2)c1OC (stereo not drawn)	inactive: -0.252%
COc1cc(OC)cc(C(=O)NCC2(N3CCOCC3)CCCCC2)c1	inactive: -0.228%
CCC(CO)(C(=O)OC1CN2CCC1CC2)c1ccccc1 (stereo not drawn)	inactive: -0.0553%
ClCCN(CCCl)c1ccc(C=C2C=CC=C2)cc1	inactive: -0.444%
NN(c1ccccc1)C1CCN(CCc2ccccc2)CC1	inactive: -0.0313%
O=C(O)C1(Nc2ccccc2)CCN(Cc2ccccc2)CC1	inactive: -0.18%
CC(C)(C)OC(=O)N1CCC(Nc2ccccc2)CC1	inactive: 0.0726%
O=c1[nH]c2ccccc2n1C1CCN(C(c2cc3ccccc3o2)c2nnnn2C2CCCC2)CC1 (stereo not drawn)	inactive: -0.599%
CCCOc1ccc(C(=O)NCC2(N(C)C)CCCCC2)cc1	inactive: -0.095%
ClCCN(CCCl)c1ccccc1	inactive: 0%
CN1CCC(Nc2ccc(F)c(Cl)c2)CC1	inactive: 0.531%
CCOc1ncccc1C(=O)NCC1(N2CCOCC2)CCCCC1	inactive: -0.503%
COc1ccc(Cl)cc1C(=O)NCC1(N2CCOCC2)CCCCC1	inactive: 21.4%
O=C1C(O)=C([N+](=O)[O-])C(=O)C(O)=C1[N+](=O)[O-]	inactive: -0.419%
N#CC1(Nc2ccccc2)CCN(Cc2ccccc2)CC1	inactive: 0.203%
O=C(NCC1(N2CCCCC2)CCCCC1)c1ccc(Cl)s1	inactive: 1.2%
O=c1[nH]c2ccccc2n1C1CCN(C(c2cc3ccccc3o2)c2nnnn2C2CCCCC2)CC1 (stereo not drawn)	inactive: -0.298%
O=C(OC1CN2CCC1CC2)C1c2ccccc2Oc2ccccc21 (stereo not drawn)	inactive: -0.503%
CCCCn1nnnc1C(c1ccc(OC)cc1)N1CCC(n2c(=O)[nH]c3ccccc32)CC1 (stereo not drawn)	inactive: -0.158%
CCOC(=O)N1CCC(Nc2ccc(OC)cc2)CC1	inactive: 0.689%
Cc1cc(C)cc(N(C(=O)c2ccccc2)C2CCN(C(=O)OC(C)(C)C)CC2)c1	inactive: 0.0844%
O=C(NCC1(N2CCCCC2)CCCCC1)c1ccc(Cl)nc1	inactive: -0.525%
O=c1[nH]c2ccccc2n1C1CCN(C(c2ccccc2OC(F)(F)F)c2nnnn2C2CCCCC2)CC1 (stereo not drawn)	inactive: 2.19%
O=C(NCC1(N2CCOCC2)CCCCC1)c1cc2ccccc2o1	inactive: -0.618%

SMILES	activation
Cc1cccc(NC2(C#N)CCN(Cc3ccccc3)CC2)c1	inactive: 0.54%
CSc1ccccc1C(=O)NCC1(N2CCCCC2)CCCCC1	inactive: -0.111%
COc1ccc(C(=O)NCC2(N3CCCCC3)CCCCC2)c(OC)c1OC	inactive: 0.218%
CC(C)(C)OC(=O)N1CCC(N(C(=O)c2ccccc2)c2ccc(F)cc2)CC1	inactive: 1.93%
CCC(c1nnnn1C1CCCC1)N1CCC(n2c(=O)[nH]c3ccccc32)CC1 (stereo not drawn)	inactive: 0.569%
COc1ccc(C(=O)NCC2(N3CCCCC3)CCCCC2)cc1	inactive: -0.458%
CCCCn1nnnc1C(CC)N1CCC(n2c(=O)[nH]c3ccccc32)CC1 (stereo not drawn)	inactive: -0.541%
O=C(NCC1(N2CCCCC2)CCCCC1)c1cccs1	inactive: 0.729%
CCCCn1nnnc1C(c1cccs1)N1CCC(n2c(=O)[nH]c3ccccc32)CC1 (stereo not drawn)	inactive: -0.221%
O=C(NCC1(N2CCCCC2)CCCCC1)c1ccc(=O)[nH]c1	inactive: -0.361%
CCOC(=O)N1CCC(Nc2cccc(C)c2)CC1	inactive: 1.36%
COc1cc(C(=O)NCC2(N(C)C)CCCCC2)ccc1OC(F)F	inactive: -0.578%
O=c1[nH]c2ccccc2n1C1CCN(C(c2cccc3ccccc23)c2nnnn2C2CCCC2)CC1 (stereo not drawn)	inactive: 1.01%
O=c1[nH]c2ccccc2n1C1CCN(C(c2ccccc2)c2nnnn2C2CCCCC2)CC1 (stereo not drawn)	inactive: -0.19%
COc1ccccc1C(=O)NCC1(N2CCOCC2)CCCCC1	inactive: -0.629%
CCOC(=O)N1CCC(Nc2ccc(F)cc2)CC1	inactive: 0.321%
COc1ccc(NC2CCN(CCc3ccccc3)CC2)c(OC)c1	inactive: 2.18%
CCCCOc1ccc(C(=O)NCC2(N3CCOCC3)CCCCC2)cc1	inactive: 1.1%
O=P1(N(CCCl)CCCl)SCCCS1	inactive: 1.09%
CCCCn1nnnc1C(c1cc2ccccc2o1)N1CCC(n2c(=O)[nH]c3ccccc32)CC1 (stereo not drawn)	inactive: 0.221%
O=C(NCC1(N2CCCCC2)CCCCC1)c1ccc(F)cc1	inactive: 0.697%
